Assays:
[1] = molecular target: T1, C-reactive protein (CRP), endogenous in human patient serum (human (endogenous in serum), UniProt P02741 19-224); assay: cell-based or functional assay
T1 sequence (looked up): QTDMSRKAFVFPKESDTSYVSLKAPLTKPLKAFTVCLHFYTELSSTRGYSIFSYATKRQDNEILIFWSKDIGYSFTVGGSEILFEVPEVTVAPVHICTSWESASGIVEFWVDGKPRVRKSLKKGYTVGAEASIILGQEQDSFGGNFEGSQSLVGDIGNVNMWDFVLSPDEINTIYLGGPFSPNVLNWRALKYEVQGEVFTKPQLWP

[2] = molecular target: T2, C-reactive protein (CRP), human, purified (Sigma) (human, UniProt P02741 19-224); assay: ELISA; competition; 0.8 ug CRP immobilised; 0.8 ug C1q with increasing L-ficolin or 0.8 ug L-ficolin with increasing C1q; MBS, 0.05% Tween-20, 1% HSA, pH 6.5, 2 mM calcium; conditions: both partners purified
T2 construct: human C-reactive protein, bought from Sigma; purity checked by SDS PAGE and mass spectrometry; source: bought: Sigma
T2 sequence (looked up): T1 sequence (looked up)

B1: L-ficolin (natural protein, human, UniProt Q15485 26-313, looked up)
chain: LQAADTCPEVKMVGLEGSDKLTILRGCPGLPGAPGPKGEAGTNGKRGERGPPGPPGKAGPPGPNGAPGEPQPCLTGPRTCKDLLDRGHFLSGWHTIYLPDCRPLTVLCDMDTDGGGWTVFQRRVDGSVDFYRDWATYKQGFGSRLGEFWLGNDNIHALTAQGTSELRVDLVDFEDNYQFAKYRSFKVADEAEKYNLVLGAFVEGSAGDSLTFHNNQSFSTKDQDNDLNTGNCAVMFQGAWWYKNCHVSNLNGRYLRGTHGSFANGINWKSGKGYNYSYKVSEMKVRPA
notes: L-ficolin (ficolin-2), human, native, 35 kDa on SDS PAGE; Native oligomer; also called native L-ficolin; source: purified from human serum; endogenous, human serum (co-IP)
C3 deposition on P. aeruginosa by flow cytometry (anti-C3d), whole patient serum against whole normal serum, after subtracting CRP- and ficolin-depleted serum [1]: 7 fold
fold change of binding, infection-inflammation against physiological condition [2]: 5 fold

From article PMC2629585, “Local Inflammation Induces Complement Crosstalk Which Amplifies the Antimicrobial Response” (PLoS Pathogens, 2009)
